{"sequences": {"note": "The chains behind the UniProt entries cited, without tags or fusion partners. Where a name states a change or a piece, a line headed by the entry shows the natural chain unless it says otherwise.", "UniProt P14867": "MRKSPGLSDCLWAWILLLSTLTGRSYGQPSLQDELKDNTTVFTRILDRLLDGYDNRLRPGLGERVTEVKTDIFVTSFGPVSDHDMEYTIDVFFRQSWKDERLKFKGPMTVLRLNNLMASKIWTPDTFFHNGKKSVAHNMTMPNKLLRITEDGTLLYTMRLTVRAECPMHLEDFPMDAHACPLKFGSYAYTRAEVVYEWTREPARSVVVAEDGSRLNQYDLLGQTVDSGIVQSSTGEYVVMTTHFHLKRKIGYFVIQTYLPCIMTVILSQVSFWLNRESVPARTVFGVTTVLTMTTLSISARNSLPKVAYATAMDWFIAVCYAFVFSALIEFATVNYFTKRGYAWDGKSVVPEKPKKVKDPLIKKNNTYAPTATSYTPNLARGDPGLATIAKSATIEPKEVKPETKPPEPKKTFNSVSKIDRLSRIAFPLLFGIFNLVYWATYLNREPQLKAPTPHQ", "UniProt P28472": "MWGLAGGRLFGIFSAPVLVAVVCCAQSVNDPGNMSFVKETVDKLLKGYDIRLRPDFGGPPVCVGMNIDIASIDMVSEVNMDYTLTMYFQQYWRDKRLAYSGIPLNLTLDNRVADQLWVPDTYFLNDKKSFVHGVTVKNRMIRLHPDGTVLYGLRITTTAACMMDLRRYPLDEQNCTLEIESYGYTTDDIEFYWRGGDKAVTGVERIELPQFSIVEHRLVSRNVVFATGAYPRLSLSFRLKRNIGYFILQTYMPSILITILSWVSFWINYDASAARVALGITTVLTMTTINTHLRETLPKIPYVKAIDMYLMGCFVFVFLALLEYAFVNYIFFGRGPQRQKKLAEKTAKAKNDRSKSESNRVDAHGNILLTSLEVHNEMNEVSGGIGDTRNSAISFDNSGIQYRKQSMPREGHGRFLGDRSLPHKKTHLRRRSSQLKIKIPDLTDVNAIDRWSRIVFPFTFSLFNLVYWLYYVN"}, "source": "patent EP3498273A1", "about": "“PHARMACEUTICAL COMPOSITION FOR MODULATING THE RESPONSE OF A GABA-A RECEPTOR” (Universität Wien, priority 2017, dated 2019)", "target": "GABAA receptors composed of α1β3γ2S subunits (Homo sapiens, UniProt P14867+P28472)", "assay": "Two-microelectrode voltage clamp: enhancement of GABA-induced chloride currents (IGABA) through receptors expressed in Xenopus laevis oocytes"}
{"smiles": "CC(=C(C#N)C#N)c1ccc(Cl)cc1Cl", "values": [{"measurement": "IGABA pot; % α1β3γ2s (30µM)", "setting": "30 µM compound, co-applied with GABA EC3-7, mean ± SEM", "result": "1488 ± 140", "unit": "%"}, {"measurement": "IGABA pot; % α1β3γ2s (100µM)", "setting": "100 µM compound, co-applied with GABA EC3-7, mean ± SEM", "result": "1474 ± 153", "unit": "%"}, {"measurement": "EC50", "setting": "Table 6, α1β3γ2s, unit inferred", "result": 12.5, "unit": "µM"}]}
